Several values for one entry are separate records, joined by “and”; a condition that tells them apart may be missing. Equal values may be shown once.
How the values were obtained:
Test in all cases: cell-based or functional assay
[1] = target: human voltage-gated sodium channel Nav1.5 (human), Q14524
[2] = target: human voltage-gated sodium channel Nav1.4 (human), P35499
[3] = target: human voltage-gated sodium channel Nav1.7 (human), Q15858

Binder | PX hNav1.5 Tonic IC50 [1] | PX hNav1.4 Tonic IC50 [2] [nM] | PX hNav1.7 Tonic IC50 [3] | Nav1.4/Nav1.7 [2] [fold] | Nav1.5/Nav1.7 [1] [fold]
AYCQKWLWTCDSKRKCCEGLRCKLWCRKEI (modifications not checked) [CyA-[Nle6, Lys(Pra)14, Glu28]JzTx-V(1-29)] | 920 nM and 1450 nM and 2160 nM |  |  |  | 
AYCQKWLWTCDSKRACCGGLRCKLWCRKEI (modifications not checked) [CyA-[Nle6, Pra17, Glu28]JzTx-V(1-29)] | 710 nM |  |  |  | 
VYCQKWLWTCDSKRKCCEGLRCKLWCRKEI (modifications not checked) [Nva-[Leu6, Lys(Pra-NPEG3)14; Glu28]JzTx-V(1-29)] | 3960 nM | 451 | 4.62 nM |  | 
AYCQKWLWTCDSKRKCCEGLRCKLWCRKEI (modifications not checked) [CyA-[Leu6, Lys(Pra)14, Glu28]JzTx-V(1-29)] | 1550 nM | 166 | 1.5 nM |  | 
GYCQKWLWTCDSKRACCEGLECKLWCRKII (modifications not checked) [Pra-[Nle6; Glu20]JzTx-V(1-29)] | 1200 nM | 804 | 1.87 nM |  | 
GCQKWLWTCDSKRACCEGLECKLWCRKII (modifications not checked) [[Pra1; Nle6; Glu20]JzTx-V(1-29)] | 2660 nM | 790 | 2.63 nM |  | 
YCQKWLWTCDSKRACCGGLECKLWCRKII (modifications not checked) [[Nle6; Pra17; Glu20]JzTx-V(1-29)] | 1020 nM | 291 | 9.95 nM |  | 
AYCQKWLWTCDSKRACCGGLECKLWCRKII (modifications not checked) [CyA-[Nle6, Pra17, Glu20]JzTx-V(1-29)] |  | 278 | 2.84 nM |  | 
GYCQKWLWTCDSKRACCEGLECKLWCRKYI (modifications not checked) [Pra-[Nle6; Glu20; Tyr28]JzTx-V(1-29)] | 4370 nM | 966 | 0.427 nM |  | 
YCQKWLWTCDSKRACCGGLECKLWCRKYI (modifications not checked) [[Nle6; Pra17; Glu20; Tyr28]JzTx-V(1-29)] | 3520 nM | 614 | 3.8 nM |  | 
AYCQKWLWTCDSKRKCCEGLECKLWCRKYI (modifications not checked) [CyA-[Nle6, Lys(Pra)14, Glu20, Tyr28]JzTx-V(1-29)] |  | 964 | 0.05 nM |  | 
AYCQKWLWTCDSKRACCGGLECKLWCRKYI (modifications not checked) [CyA-[Nle6, Pra17, Glu20, Tyr28]JzTx-V(1-29)] |  | 1760 | 87.1 nM |  | 
YCQKWLWTCDSKRGCCEGLRCKLWCRKII (modifications not checked) [[Nle6, Pra14]JzTx-V(1-29)] | 630 nM | 5 | 0.3 nM |  | 
VYCQKWLWTCDSKRKCCEGLRCKLWCRKII (modifications not checked) [Nva-[Nle6, Lys(Pra)14]JzTx-V(1-29)] |  | 20.5 | 1.62 nM and 1.63 nM |  | 
VYCQKWLWTCDSKRKCCEGLRCKLWCRKII (modifications not checked) [Nva-[Nle6, Lys(Pra-NPEG3)14]JzTx-V(1-29)] |  | 16.5 | 1.43 nM and 1.56 nM |  | 
VYCQKWLWTCDSKRKCCEGLRCKLWCRKII (modifications not checked) [Nva-[Leu6, Lys(Pra)14]JzTx-V] |  | 16.1 | 2.38 nM and 1.57 nM |  | 
YCQKWLWTCDSKRACCAGLRCKLWCRKEI (modifications not checked) [[Nle6; Atz(NPEG10)17; Glu28]JzTx-V(1-29)] |  | 65.9 | 5.88 nM | 11 | 
ACQKWLWTCDSKRACCEGLECKLWCRKII (modifications not checked) [[Atz(NPEG10)1; Nle6; Glu20]JzTx-V(1-29)] |  | 549 | 6.48 nM | 85 | 
AYCQKWLWTCDSKRKCCEGLRCKLWCRKII (modifications not checked) [CyA-[Nle6, Lys(Atz(NPEG10)-NPEG3)14]JzTx-V(1-29)] |  | 16.6 | 6.37 nM | 3 | 
VYCQKWLWTCDSKRKCCEGLRCKLWCRKII (modifications not checked) [Nva-[Nle6, Lys(Atz(NPEG10)-NPEG4)14]JzTx-V(1-29)] | 950 nM | 51.3 | 9.67 nM |  | 
AYCQKWLWTCDSKRACCAGLRCKLWCRKEI (modifications not checked) [CyA-[Nle6, Atz(NPEG10)17, Glu28]JzTx-V(1-29)] | 1330 nM | 172 | 5.62 nM | 31 | 236
VYCQKWLWTCDSKRKCCEGLRCKLWCRKII (modifications not checked) [Nva-[Leu6; Lys(Atz(NPEG10))14]JzTx-V(1-29)] | 2410 nM | 128 | 11.6 nM |  | 

From US20150023988A1
